Compound potency records, mixed from different reports. Data source: NIAID ChemDB in PubChem.

Shared fields: whole-cell or culture tests; species: Mycobacterium tuberculosis

Blank or dashed fields: not listed here.

compound | endpoint | cells | dose | method | strain | value
O=c1oc(-c2ccc([N+](=O)[O-])cc2Cl)ns1 | MIC99 |  |  | broth dilution | H37Rv | 32 µg/mL
CCOC(=O)c1[nH]c(C)c(/C=N/NC(=O)Cn2c(C)c(C(=O)OCC)c(C)c2-c2ccc(Cl)cc2)c1C | inhibition |  | 6.25 µg/mL | resazurin | H37Rv (ATCC 27294) | 57%
O=C1CSC(c2cccs2)N1c1nncs1 | inhibition |  | 12.5 µg/mL | BACTEC | H37Rv | -2%
O=[N+]([O-])c1cn2c(n1)OC[C@@H](OCc1ccc(C#Cc3ccc(C(F)(F)F)cc3)cc1)C2 | MIC90 |  |  | resazurin |  | 0.02 µM
Cc1cc(=O)n2[nH]c(-c3ccc(Cl)cc3)nc2n1 | inhibition |  | 6.25 µg/mL | resazurin | H37Rv | 45%
O=[N+]([O-])c1cn2c(n1)OC[C@@H](OCc1ccc(/C=C/c3ccc(C(F)(F)F)cc3)cc1)C2 | MIC90 |  |  | resazurin |  | 0.02 µM
CN1CCN(Cc2ccccc2NC/C=C/c2ccccc2)CC1 | MIC |  |  |  | 6425 | 32 µg/mL
O=C1NC(Cc2ccccc2)C(=O)NC1Cc1ccccc1 | MIC |  |  | BACTEC | H37Rv | ≥12.5 µg/mL
CC(C)C(C(=O)Nc1ccc(C2=CC(c3ccccc3)C(C#N)=C(N)O2)cc1)c1ccc(Cl)cc1 | inhibition |  | 6.25 µg/mL | BACTEC | H37Rv | 10%
CCOC(=O)c1cc(-c2ccc(Cl)cc2)n(C(C)C(=O)N/N=C/c2cn(C(C)=O)c3ccccc23)c1C | inhibition |  | 6.25 µg/mL | resazurin | H37Rv (ATCC 27294) | 27%
Oc1ccccc1-c1csc(Nc2ccccc2C(F)(F)F)n1 | MIC |  |  | visual reading | H37Rv | >20 µM
NC(=O)c1cnccn1 | MIC |  |  |  | 21 strains (PZA-susceptible) | 25–400 µg/mL
CC1COc2c(N3CCN(C)CC3)c(F)cc3c(=O)c(C(=O)O)cn1c23 | EC50 |  |  |  | 55 isolates | <1 µg/mL
S=P1(Oc2ccccc2)Nc2cc(Cl)c(Cl)cc2N1 | MIC bound |  |  | BACTEC | H37Rv | >12.5 µg/mL
CCCCNCc1cccc(I)c1 | MIC |  |  |  | H37Rv | 250 µg/mL
O=C(NCCCN1c2ccccc2Sc2ccccc21)N1C(=O)/C(=C\c2cccc(O)c2)SC1c1cccc(O)c1 | inhibition |  | 25 µg/mL | agar |  | 27%
O=C(Nc1ccc(/C=C/c2ccc(NC(=O)c3cc(S(=O)(=O)O)c4cccnc4c3O)cc2S(=O)(=O)O)c(S(=O)(=O)O)c1)c1cc(S(=O)(=O)O)c2cccnc2c1O | MIC bound |  |  | BACTEC | H37Rv | >12.5 µg/mL
COc1ccc(OC)c(-c2nsc(=O)o2)c1 | MIC99 |  |  | broth dilution | H37Rv | 32 µg/mL
CC(C)[C@@H]1C2[C@H](O)[C@@H]3[C@@H](C)CC[C@@H]4[C@@H](C)C[C@@H]1[C@]34C(=O)C2(C)C | inhibition |  | 6.25 µg/mL |  | H37Rv | 17%
CCOC(=O)Nc1c(C#N)[n+]([O-])c2cc(C)c(C)cc2[n+]1[O-] | MIC |  |  |  | H37Rv | <12.5 µg/mL
COc1ccccc1/C=C1/SC(c2ccccc2OC)N(C(=O)NCCCN2c3ccccc3Sc3ccccc32)C1=O | inhibition |  | 25 µg/mL | agar | H37Rv | 31%
c1ccc(Nc2nc(-c3ccccn3)cs2)nc1 | MIC99 |  |  | visual reading | H37Rv | 1 µM
O=C1CSC(c2ccc([N+](=O)[O-])cc2)N1C(=O)NCCCN1c2ccccc2Sc2ccccc21 | inhibition |  | 50 µg/mL | agar | H37Rv | 70%
COc1ccc(OC)c(-c2nc(=O)ss2)c1 | MIC90 |  |  | broth dilution | H37Rv | 16 µg/mL
Cc1cc2c(cc1C)[n+]([O-])c(NCCCN(C)C)c(C#N)[n+]2[O-] | MIC |  |  |  | H37Rv | >12.5 µg/mL
Nc1nc2nc3c(nc2c(=O)[nH]1)CN(C1CCCCC1)C3=O | MIC |  |  | BACTEC | H37Rv | ≥12.8 µg/mL
O=[N+]([O-])c1cn2c(n1)OC[C@@H](OCc1cccc(C#Cc3ccc(C(F)(F)F)cc3)c1)C2 | MIC90 |  |  | resazurin |  | 0.21 µM
CCN(CC)CCN(C(=O)OCCOC(=O)N(CCN(CC)CC)c1cccc2sc3ccccc3c(=O)c12)c1cccc2sc3ccccc3c(=O)c12 | MIC bound |  |  | BACTEC | H37Rv | >12.5 µg/mL
O=[N+]([O-])c1cn2c(n1)OC[C@@H](OCc1ccc(-c3ccc(Oc4ccc(F)cc4)nc3)cc1)C2 | MIC90 |  |  | resazurin |  | 0.02 µM
C[N+](C)(C)CC(=O)N/N=C/c1cccs1.[Cl-] | MIC |  |  | BACTEC | H37Rv | ≥12.5 µg/mL
O=C(NCCCN1c2ccccc2Sc2ccccc21)N1C(=O)/C(=C\c2ccccc2Cl)SC1c1ccccc1Cl | inhibition |  | 50 µg/mL | agar | H37Rv | 80%
CCCCNCc1cccc(C)c1 | MIC |  |  |  | H37Rv | 125 µg/mL
O=C(/N=C/c1ccc(Br)cc1)NCCCN1c2ccccc2Sc2ccccc21 | inhibition |  | 25 µg/mL | agar | H37Rv | 28%
O=c1nc2c(ncn2Cc2ccccc2)c(-c2cccs2)n1Cc1ccccc1 | MIC |  |  |  | H37Rv | >12.5 µg/mL
CC(=O)N1N=C(c2ccc(NC(=O)C(c3ccc(Cl)cc3)C(C)C)cc2)CC1c1ccccc1[N+](=O)[O-] | inhibition |  | 6.25 µg/mL | BACTEC | H37Rv | 10%
CC(C)CCNCc1ccccc1 | MIC |  |  |  | H37Rv | 250 µg/mL
CCCCOC(=O)CSc1nnc(-c2ccc([N+](=O)[O-])s2)s1 | MIC |  |  | resazurin | H37Rv | 0.78 µg/mL
COc1ccc(C2SCC(=O)N2C(=O)NCCCN2c3ccccc3Sc3ccccc32)cc1 | inhibition |  | 25 µg/mL | agar | H37Rv | 30%
C(/C=C/c1ccccc1)=Nc1ccc(Cn2ccnc2)cc1 | MIC |  |  |  | B814 | 32 µg/mL
O=C1NC(=O)C(c2ccc(Br)c3ccccc23)=C1O | inhibition |  | 12.5 µg/mL | BACTEC | H37Rv | 20%
CCCOC(=O)CSc1nnc(-c2ccc([N+](=O)[O-])s2)s1 | inhibition |  | 6.25 µg/mL | resazurin | H37Rv | 100%
CCN(CC)C(=S)[S][Sn]([S]C(=S)N(CC)CC)([c]1ccccc1)[c]1ccccc1 | MIC | VERO |  |  | H37Rv | 1.6 µg/mL
C(=C\c1ccccc1)/CNc1ccc(Cn2ccnc2)cc1 | MIC |  |  |  | 6431 | 4 µg/mL
CCOC(=O)c1cc(-c2ccc(Cl)cc2)n(C(C)C(=O)N/N=C/c2[nH]c(C)c(C(=O)OCC)c2C)c1C | inhibition |  | 6.25 µg/mL | resazurin | H37Rv (ATCC 27294) | 60%
O=[N+]([O-])c1cn2c(n1)OC[C@@H](OCc1ccnc(N3CCN(c4ccc(C(F)(F)F)cn4)CC3)c1)C2 | MIC90 |  |  | resazurin |  | 0.36 µM
COc1cc2oc(-c3ccc(O)cc3O)c(CC=C(C)C)c(=O)c2c(O)c1/C=C/C(C)C | MIC |  |  |  | RMP-R | >12.5 µg/mL
CC[C@H]1OC(=O)[C@H](C)C(=O)[C@H](C)[C@@H](O[C@@H]2O[C@H](C)C[C@H](N(C)C)[C@H]2O)[C@](C)(OC)C[C@@H](C)C(=O)[C@H](C)[C@H]2N(NCCCc3ccnc4ccccc34)C(=O)O[C@]12C | MIC |  |  |  | H37Rv | 20 µg/mL
O=C1CC2C(O)OC(O)C(C1)N2C(=O)OCC(Cl)(Cl)Cl | inhibition |  | 12.5 µg/mL | BACTEC | H37Rv | 15%
CCCCNCc1ccc(N(C)C)cc1 | MIC |  |  |  | H37Rv | 60 µg/mL
O=C(O)c1cnccn1 | inhibition |  | 50 µg/mL |  | H37Ra | 60%
CCCCNCc1ccc(OCCCC)cc1 | MIC |  |  |  | H37Rv | 250 µg/mL
CCOC(=O)c1c(C)[nH]c(/C=N/NC(=O)Cn2c(C)c(C(=O)OCC)c(C)c2-c2ccc(Cl)cc2)c1C | EC90 |  |  | resazurin | H37Rv (ATCC 27294) | >100 µg/mL
CCOC(=O)COC(=O)C1C(C(N)=O)N(CC(=O)OCC)CCN1CC(=O)OCC | MIC |  |  | BACTEC | H37Rv | ≥12.8 µg/mL
N#Cc1c(N)[n+]([O-])c2ccc(F)cc2[n+]1[O-] | inhibition |  | 6.25 µg/mL |  | H37Rv | 99%
O=[N+]([O-])c1cn2c(n1)OC[C@@H](OCc1ccnc(N3CCN(c4ccc(OC(F)(F)F)cc4)CC3)c1)C2 | MIC90 |  |  | resazurin |  | 0.17 µM
CC1=CC[C@]2(C)CC[C@@]3(C)[C@H](C(C(C)C)=C[C@@H]3O)[C@H]2CC1 | EC50 |  |  | resazurin | H37Rv | 6.25 µg/mL
CCOP(=O)(OCC)C1CCCN2CCc3cc(OC)c(OC)cc3C12.Cl | MIC bound |  |  | BACTEC | H37Rv | >12.5 µg/mL
CCCCNCc1cccc(Cl)c1 | MIC |  |  |  | H37Rv | 60 µg/mL
O=[N+]([O-])c1cn2c(n1)OC[C@@H](OCc1ccc(S(=O)(=O)NCc3ccc(OC(F)(F)F)cc3)cc1)C2 | MIC90 |  |  | resazurin |  | 0.9 µM
Cc1cccc(C)c1Nc1nc(-c2ccncn2)cs1 | MIC |  |  | visual reading | H37Rv | 20 µM
O=C(/N=C/c1cccc([N+](=O)[O-])c1)NCCCN1c2ccccc2Sc2ccccc21 | inhibition |  | 50 µg/mL | agar | H37Rv | 68%
CC1=CC[C@]2(C)C[C@H](O)[C@@]3(C)[C@H](C(C(C)C)=C[C@@H]3O)[C@H]2CC1 | inhibition |  | 6.25 µg/mL | resazurin | H37Rv | 30%
Cc1sc(-c2nsc(=O)o2)cc1[N+](=O)[O-] | MIC99 |  |  | broth dilution | H37Rv | 4 µg/mL
CCN(CC)CCNC(=O)Nc1c(C#N)[n+]([O-])c2cc(Cl)c(Cl)cc2[n+]1[O-] | inhibition |  | 6.25 µg/mL |  | H37Rv | 98%
CC(C)C(C(=O)Nc1ccc(C2=CC(c3ccccc3Cl)C(C#N)=C(N)O2)cc1)c1ccc(Cl)cc1 | inhibition |  | 6.25 µg/mL | BACTEC | H37Rv | 20%
O=[N+]([O-])c1ccc(-n2nc3ccc4c(no[n+]4[O-])c3n2)cc1 | inhibition |  | 6.25 µg/mL | resazurin | H37Rv | 18%
O=c1nc(-c2cccnc2Cl)ss1 | MIC90 |  |  | broth dilution | H37Rv | 4 µg/mL
CCN(CC)CCNC(=O)Nc1c(C#N)[n+]([O-])c2ccccc2[n+]1[O-] | inhibition |  | 6.25 µg/mL |  | H37Rv | 0%
O=[n+]1c2ccccc2n([O-])c2cc(Br)ccc21 | MIC |  |  | BACTEC | H37Rv | 0.8 µg/mL
CO[C@H]1/C=C/O[C@@]2(C)Oc3c(C)c(O)c4c(O)c(c(/C=N/N5CCN(C)CC5)c(O)c4c3C2=O)NC(=O)/C(C)=C\C=C\[C@H](C)[C@H](O)[C@@H](C)[C@@H](O)[C@@H](C)[C@H](OC(C)=O)[C@@H]1C | MIC |  |  | visual reading | H37Rv | 0.004 µM
O=c1c2ccccc2[se]n1-c1cccnc1 | inhibition |  | 12.5 µg/mL | BACTEC | H37Rv | 99%
COc1cccc(/C=C2/SC(c3cccc(OC)c3)N(C(=O)NCCCN3c4ccccc4Sc4ccccc43)C2=O)c1 | inhibition |  | 25 µg/mL | agar | H37Rv | 30%
CCOC(=O)c1c(C)c(-c2ccc(Cl)cc2)n(CC(=O)N/N=C/c2ccc([N+](=O)[O-])o2)c1C | inhibition |  | 6.25 µg/mL | resazurin | H37Rv (ATCC 27294) | 63%
O=[N+]([O-])c1cn2c(n1)OC[C@@H](OCc1ccc(C#Cc3ccc(C(F)(F)F)cc3)nc1)C2 | MIC90 |  |  | low oxygen |  | 2.5 µM
CCCCNCc1cccc(OC)c1 | MIC |  |  |  | H37Rv | 250 µg/mL
O=c1nc(-c2ccccc2Cl)ss1 | MIC90 |  |  | broth dilution | H37Rv | 16 µg/mL
CCN(CC)CCNC(=O)Nc1c(C#N)[n+]([O-])c2cc(F)ccc2[n+]1[O-] | inhibition |  | 6.25 µg/mL |  | H37Rv | 99%
CC(=O)N1N=C(c2ccc(NC(=O)C(c3ccc(Cl)cc3)C(C)C)cc2)CC1c1ccccc1 | MIC |  |  | BACTEC | H37Rv | 3.13 µg/mL
CCOC(=O)c1ccc(C(=O)OCC)n1-c1cc2cc(c1)CSCc1cc(cc(-n3c(C(=O)OCC)ccc3C(=O)OCC)c1)CSC2 | MIC bound |  |  | BACTEC | H37Rv | >6.25 µg/mL
Cc1ccc2c3c1C(CN)OB3OCCO2 | MIC |  |  | broth dilution / resazurin | H37Rv | 0.3 µM
COc1ccc(C2SC(N)=Nc3c2c(C)nn3C(=O)Cc2ccccc2)cc1 | MIC bound |  |  | BACTEC | H37Rv | >12.5 µg/mL
COc1ccc2cc(N)c3c(c2c1)OC(=O)CC3 | MIC |  |  | resazurin / fluorescence | H37Rv | 3.125 µg/mL
NNC(=O)c1ccncc1 | MIC |  |  |  | MTB13 (INH-R) | >4 µg/mL
C/C(O)=C(/C=N/C(=S)Nc1ccc(S(N)(=O)=O)cc1)C(=O)Nc1ccccc1C | MIC bound |  |  | resazurin | H37Rv | >6.25 µg/mL
CCOC(=O)c1cc(-c2ccc(Cl)cc2)n(CCC(=O)N/N=C/c2cccs2)c1C | inhibition |  | 6.25 µg/mL | resazurin | H37Rv (ATCC 27294) | 82%

a–b is a range or a potency band. A number after MIC or MFC names an inhibition level or a share of isolates. MIC bound: limit read from a one-dose screen. Inhibition is in % at the dose shown (toxicity tests: loss of growth or viability). Lines come from different laboratories, so protocols vary. ECn: concentration that inhibits the pathogen or its effect by n%.